Experiment: H/E stained tissue sections of diverse organs of treated mice
Assay type: in vivo
Settings: beauvericin-treated mice

## beauvericin
  Tissue alteration or inflammatory responses in H/E stained sections of diverse organs: no signs of tissue alteration or inflammatory responses

Reference: publication PMC5618191, “The Natural Fungal Metabolite Beauvericin Exerts Anticancer Activity In Vivo: A Pre-Clinical Pilot Study” (Toxins, 2017)
